Structures can show the parent of a compound that is named as a salt.

The test system of the experiment is SARS-CoV-2. In words: microbe, parasite or virus in culture. In kind it is cell-based. The settings on record: Severe acute respiratory syndrome coronavirus 2, 120 h.

As to `CC(=O)[C@]1(O)Cc2c(O)c3c(c(O)c2[C@@H](O[C@H]2C[C@H](N)[C@H](O)[C@H](C)O2)C1)C(=O)c1ccccc1C3=O` [Compound 38, (7S,9S)-9-Acetyl-7-[(3-amino-2,3,6-trideoxy-alpha-L-lyxo-hexopyranosyl)oxy]-7,8,9,10-tetrahydro-6,9,11-trihydroxy-5,12-naphthacenedione hydrochloride], it took 58.9 µM to reach half-maximal inhibition (IC50).
In the case of `O=C(O)Cc1cccc(OCCCN(Cc2cccc(C(F)(F)F)c2Cl)CC(c2ccccc2)c2ccccc2)c1` [Compound 71, 2-[3-[3-[N-[2-Chloro-3-(trifluoromethyl)benzyl]-N-(2,2-diphenylethyl)amino]propoxy]phenyl]acetic acid], the IC50 stood at 27.7 µM.

What is called IC50 is the midpoint of a concentration-inhibition curve. Read a high IC50 as lower potency.
